“And” between values parts separate entries of the source, which are not always exact repeats. Equal entries are not always repeated. Where two headings read alike, the source gives them in different places.
Settings: for CAI-1 (nM) in cell-free fluids: replicates

SMILES: CCCCCCCCCC(=O)[C@@H](O)CC [CAI-1, (S)-3-hydroxytridecan-4-one]
- Ave CAI-1 (OD600 0.5): 27 nM and 27.4709 nM
- CAI-1 (nM) in cell-free fluids (OD600 0.5): 32.8223 nM and 20.9533 nM and 33.3685 nM and 18.2236 nM and 31.9871 nM
- Ave CAI-1 (OD600 1): 81.6428 nM
- CAI-1 (nM) in cell-free fluids (OD600 1): 100.073 nM and 77.1014 nM and 125.493 nM and 64.4265 nM and 79.691 nM and 64.1519 nM and 71.83 nM and 70.3761 nM
- Ave CAI-1 (OD600 1.2): 150.521 nM
- CAI-1 (nM) in cell-free fluids (OD600 1.2): 139.778 nM and 154.831 nM and 156.953 nM
- Ave CAI-1 (OD600 1.5): 208.667 nM
- CAI-1 (nM) in cell-free fluids (OD600 1.5): 230.043 nM and 217.321 nM and 178.636 nM
- Ave CAI-1 (OD600 2): 220 nM and 221.953 nM
- CAI-1 (nM) in cell-free fluids (OD600 2): 223.541 nM and 215.561 nM and 226.756 nM
- CAI-1 in cell-free culture fluids (OD600 < 0.5): undetectable

From paper PMC5467912, “Asymmetric regulation of quorum-sensing receptors drives autoinducer-specific gene expression programs in Vibrio cholerae” (PLoS Genetics, 2017)
